Results of unrelated studies side by side (data: NIAID ChemDB).

Common to all: whole-cell or culture tests; organism: Parainfluenza virus; cells: VERO; read-out: EC50

Blank or dashed fields: not listed here.

structure,strain,read by,value
Nc1ncnc2c1ncn2[C@@H]1C=C(CO)[C@@H](O)[C@@H]1O,TYPE 3,cytopathic effect,10 µg/mL
COC(=O)[C@]1(C)CCC[C@]2(C)c3cc(Br)c4nc(C)[nH]c4c3CCC12,TYPE 3,plaque count,>4 µg/mL
Cc1cn([C@H]2OC[C@@H](CO)C2F)c(=O)[nH]c1=O,TYPE 3,cytopathic effect,>80 µg/mL
COc1ccc2[nH]c3c(c2c1)CCN1OCSCC(N)[C@@H]31,TYPE 3,cytopathic effect,0.7 µg/mL
Nc1ncnc2c1ncn2[C@H]1C[C@@H](O)[C@H](O)[C@@H]1O,TYPE 3,,0.2 µg/mL
CC1(C)[C@@H](CCO)C[C@H]1n1cnc2c(N)nc(N)nc21,TYPE 3,cytopathic effect,>400 µg/mL
CC1(CO)CCC(Cn2nnc3c(=O)[nH]c(N)nc32)C1(C)C,TYPE 3,cytopathic effect,>200 µg/mL
CCC(Sc1ncnc2c1cnn2CCCCO)C(N)=O,TYPE 3,cytopathic effect,>400 µg/mL
COC(=O)[C@]1(C)CCC[C@]2(C)c3cc(Br)c4[nH]ccc4c3CCC12,TYPE 3,plaque count,>4 µg/mL
Cc1cn([C@@H]2C=C(CCO)[C@@H](O)[C@H]2O)c(=O)[nH]c1=O,TYPE 3,plaque count,>25 µg/mL
CC1(CO)CCC(Cn2cnc3c(=O)[nH]cnc32)C1(C)C,TYPE 3,cytopathic effect,>200 µg/mL
Nc1nccc2c1ncn2[C@@H]1C[C@H](CO)[C@@H](O)[C@H]1O,TYPE 3,cytopathic effect,0.7 µg/mL
C[C@H]1O[C@@H](c2n[nH]c(C(N)=O)c2O)[C@H](O)[C@@H]1O,TYPE 3,cytopathic effect,>200 µg/mL
CC1(CO)CCC(Cn2nnc3c(Cl)nc(N)nc32)C1(C)C,TYPE 3,cytopathic effect,>100 µg/mL
Cc1ccn2c(C3OCCO3)cnc2c1,TYPE 3,,>1000 µM
COC(=O)[C@]1(C)CCC[C@]2(C)c3ccc4[nH]c(C)nc4c3CCC12,TYPE 3,plaque count,>4 µg/mL
Nc1nc2c(ncn2[C@H]2OC[C@@H](CO)C2O)c(=O)[nH]1,TYPE 3,cytopathic effect,>16 µg/mL
Nc1ncnc2c1ncn2[C@@H]1O[C@H](/C=N/O)[C@@H](O)[C@@H]1O,TYPE 3,cytopathic effect,>40 µg/mL
Nn1c(-c2cn(-c3ccccc3)nc2-c2ccccc2)n[nH]c1=S,TYPE 3,cytopathic effect,>16 µg/mL
Cc1cn([C@@H]2OC[C@H](CO)[C@H]2O)c(=O)[nH]c1=O,TYPE 3,cytopathic effect,>80 µg/mL
CC1(C)[C@@H](CO)CC[C@@]1(C)Cn1nnc2c(N)ncnc21,TYPE 3,cytopathic effect,>400 µg/mL
CC1(CO)CCC(Cn2nnc3c(N)nc(N)nc32)C1(C)C,TYPE 3,cytopathic effect,>200 µg/mL
COc1cc2c(cc1OC)[C@@H]1C(N)CSCON1CC2,TYPE 3,cytopathic effect,0.2 µg/mL
Nc1ncnc2c1ncn2C[C@H](O)CO,TYPE 3,cytopathic effect,70 µg/mL
Cc1ccn2c(C(SCCc3ccccc3)SCCc3ccccc3)cnc2c1,TYPE 3,,>1000 µM
CC1(CO)CCC(Cn2nnc3c(N)ncnc32)C1(C)C,TYPE 3,cytopathic effect,>40 µg/mL
CSCC1=C[C@@H](n2cnc3c(N)ncnc32)[C@H](O)[C@@H]1O,TYPE 3,cytopathic effect,>200 µg/mL
Nc1ncnc2c1ncn2[C@@H]1C=C(CO)[C@@H](O)C1,TYPE 3,cytopathic effect,40 µg/mL
O=c1ccn([C@@H]2O[C@H](CO)[C@](O)(C(F)(F)F)[C@H]2O)c(=O)[nH]1,TYPE 3,cytopathic effect,>400 µg/mL
CCOC(=O)c1ccc(OC(=O)CCCCCN=C(N)N)cc1.COS(=O)(=O)O,HA-1/C243,cytopathic effect,>150 µg/mL
N#Cc1cc(NC(=O)c2ccccc2)c(=O)n2c1[nH]c1ccccc12,TYPE 3,plaque count,0.3 µg/mL
OC[C@H]1O[C@H](c2cc(Cl)c(F)cc2F)C[C@@H]1O,TYPE 3,cytopathic effect,>80 µg/mL
Nc1ncnc2c1ncn2[C@@H]1O[C@H](CO)[C@](O)(C(F)(F)F)[C@H]1O,TYPE 3,cytopathic effect,300 µg/mL
C=C(N=CC)c1nc(-c2cccc(C)c2)n([C@@H]2O[C@H](CO)[C@@H](O)[C@H]2O)n1,TYPE 3,cytopathic effect,>40 µg/mL
Nc1ccn([C@@H]2C=C(CCO)[C@@H](O)[C@H]2O)c(=O)n1,TYPE 3,plaque count,>25 µg/mL
CC(Sc1ncnc2c1cnn2COCC(O)CO)C(N)=O,TYPE 3,cytopathic effect,>400 µg/mL
CC1(C)[C@@H](CO)CC[C@@]1(C)Cn1cnc2c(=O)[nH]cnc21,TYPE 3,cytopathic effect,>400 µg/mL
Nc1ncnc2c1ncn2[C@@H]1O[C@H](C=O)[C@@H](O)[C@H]1O,TYPE 3,cytopathic effect,>200 µg/mL
c1ccc(C2=Nn3c(nnc3-c3cn(-c4ccccc4)nc3-c3ccccc3)SC2)cc1,TYPE 3,cytopathic effect,>16 µg/mL
Nc1ncnc2c1ncn2[C@H]1C[C@@H](CO)[C@H](O)[C@@H]1O,TYPE 1,cytopathic effect,≥200 µg/mL
Nc1nc(=O)n([C@@H]2O[C@H](COP(=O)([O-])[O-])[C@@H](O)[C@H]2O)cc1F,C243 (TYPE 3),cytopathic effect,20 µM
CC1(C)[C@@H](CCO)C[C@H]1n1nnc2c(=O)[nH]c(N)nc21,TYPE 3,cytopathic effect,>400 µg/mL
CON1CCc2c([nH]c3ccccc23)[C@@H]1[C@@H](N)CSC,TYPE 3,cytopathic effect,>40 µg/mL
CC=NC(=N)c1nc(-c2ccc(C)cc2)n(COCCO)n1,TYPE 3,cytopathic effect,70 µg/mL
N#Cc1cc(C#N)c2[nH]c3ccccc3n2c1=O,GREER (TYPE 2),plaque count,2.8 µg/mL
Cc1ccn2c(C3SCCS3)cnc2c1,TYPE 3,,>1000 µM
Nc1nc(=O)n([C@H]2C=C(F)[C@@H](CO)O2)cc1F,C243 (TYPE 3),cytopathic effect,130 µM
Cc1nn2c(-c3cn(-c4ccccc4)nc3-c3ccccc3)nnc2s1,TYPE 3,cytopathic effect,>3.2 µg/mL
CC1(CO)CCC(Cn2nnc3c(Cl)ncnc32)C1(C)C,TYPE 3,cytopathic effect,>40 µg/mL
CCOC(=O)c1cc(C#N)c2[nH]c3ccccc3n2c1=O,C243 (TYPE 3),plaque count,150 µg/mL
Nc1ncnc2c1ncn2[C@@H]1C=C(CF)[C@H](O)[C@H]1O,TYPE 3,cytopathic effect,7 µg/mL
CC=NC(=N)c1nc(-c2ccc(OC)cc2)n(C/C=C/c2ccccc2)n1,TYPE 3,cytopathic effect,>100 µg/mL
C1=CCC2(CC1)COC(c1ccco1)OC2,HA-1/C243,cytopathic effect,>500 µg/mL
Cc1cn([C@H]2C/C(=N\O)[C@@H](CO)O2)c(=O)[nH]c1=O,,cytopathic effect,>200 µg/mL
[N-]=[N+]=NC(CBr)c1cc([C@H]2C[C@H](O)[C@@H](CO)O2)c(F)cc1F,TYPE 3,cytopathic effect,>16 µg/mL
CC1(C)[C@@H](CO)CC[C@@]1(C)Cn1cc(I)c(=O)[nH]c1=O,TYPE 3,cytopathic effect,>400 µg/mL
Nc1ncnc2c1ncn2C[C@H](O)CO,TYPE 3,cytopathic effect,20 µg/mL
CC1(C)[C@@H](CCO)C[C@H]1n1nnc2c(Cl)nc(N)nc21,TYPE 3,cytopathic effect,>200 µg/mL
Nc1ccn([C@@H]2C=C(CO)[C@@H](O)[C@H]2O)c(=O)n1,TYPE 3,cytopathic effect,0.2 µg/mL
NC(=O)CSc1ncnc2c1cnn2COCC(O)CO,TYPE 3,cytopathic effect,>400 µg/mL
O=C(Nn1c(-c2cn(-c3ccccc3)nc2-c2ccccc2)n[nH]c1=S)c1ccccc1,TYPE 3,cytopathic effect,>16 µg/mL
Nc1ncnc2c1ncn2[C@@H]1O[C@H](C=NO)[C@@H](O)[C@H]1O,TYPE 3,cytopathic effect,>1 µg/mL
CC=NC(=N)c1nc(-c2ccccc2)n(C/C=C/c2ccccc2)n1,TYPE 3,cytopathic effect,>10 µg/mL
COS(=O)(=O)O.N=C(N)c1ccc2cc(OC(=O)c3ccc(N=C(N)N)cc3)ccc2c1,HA-1/C243,cytopathic effect,>110 µg/mL
Nc1nc(F)nc2c1ncn2[C@@H]1C=C(CO)[C@@H](O)[C@H]1O,TYPE 3,cytopathic effect,2 µg/mL

A second listing of 8 rows from above:

{"structure": "CC1(CO)CCC(Cn2cnc3c(=O)[nH]cnc32)C1(C)C", "strain": "TYPE 3", "read by": "cytopathic effect", "value": ">200 µg/mL"}
{"structure": "OC[C@H]1O[C@H](c2cc(Cl)c(F)cc2F)C[C@@H]1O", "strain": "TYPE 3", "read by": "cytopathic effect", "value": ">80 µg/mL"}
{"structure": "Nn1c(-c2cn(-c3ccccc3)nc2-c2ccccc2)n[nH]c1=S", "strain": "TYPE 3", "read by": "cytopathic effect", "value": ">16 µg/mL"}
{"structure": "CC=NC(=N)c1nc(-c2ccc(C)cc2)n(COCCO)n1", "strain": "TYPE 3", "read by": "cytopathic effect", "value": "70 µg/mL"}
{"structure": "CC1(C)[C@@H](CCO)C[C@H]1n1nnc2c(=O)[nH]c(N)nc21", "strain": "TYPE 3", "read by": "cytopathic effect", "value": ">400 µg/mL"}
{"structure": "Nc1ncnc2c1ncn2[C@H]1C[C@@H](CO)[C@H](O)[C@@H]1O", "strain": "TYPE 1", "read by": "cytopathic effect", "value": "≥200 µg/mL"}
{"structure": "Nc1ncnc2c1ncn2C[C@H](O)CO", "strain": "TYPE 3", "read by": "cytopathic effect", "value": "20 µg/mL"}
{"structure": "Nc1nc(=O)n([C@H]2C=C(F)[C@@H](CO)O2)cc1F", "strain": "C243 (TYPE 3)", "read by": "cytopathic effect", "value": "130 µM"}

ECn: concentration that inhibits the pathogen or its effect by n%. Lines come from different laboratories, so protocols vary.